Data taken from ChEMBL document CHEMBL3988442, “University of Dundee, Small-Polar-MMV Screening Library” (2021).

Mtb glucose medium: 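Whole-cell growth test on Mycobacterium tuberculosis, read after 3 days in glucose-containing 7H9 medium; the read-out is not stated. Concentration: 500 µM. Higher reads as more growth inhibition (inferred: compounds with an IC50 in retests scored well above the rest). Size under these conditions: about 18,000 compounds, about 1,400 of them at 50% or above in at least one test.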
Mtb cholesterol medium: 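Whole-cell growth test on Mycobacterium tuberculosis, read after 4 days in a medium based on cholesterol and the lipid DPPC; the read-out is not stated. Compounds at 500 µM. The record gives no direction; compounds that gave an IC50 in retests scored well above the rest, so higher reads as more growth inhibition. Of about 18,000 compounds tested this way, about 900 (5%) reached 50% or more in at least one test.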

Values are the deposited “Percent Effect”, in %.
The record does not define 0% and 100%; most values in the screen are far below 50% and negative numbers occur (in some assays of this library far below -100).
This is part of a subset picked to be rich in strong results.
A dash means the value is not listed here; it may have been measured.

structure | Mtb glucose medium | Mtb cholesterol medium
COC1CCN(CCC(=O)Nc2cccnc2)C1 (centres unmarked) | -10.06 | -
CN(C)C(=O)NCCNC(=O)NCc1ccco1 | - | 10.02
CN1C[C@@H]2CN(C(=O)c3cc(C4CC4)on3)C[C@@H]2C1 | 10.55 | -
CCCc1ncc(C(=O)NCC(C)S(N)(=O)=O)s1 (centres unmarked) | - | 15.45
CO[C@H]1CN(C(=O)CCCc2cn[nH]c2)CC[C@H]1N | 5.765 | -
Cc1ccc(CN(C)CC(N)=O)o1 | 2.929 | -
CCCNC(=O)Nc1cn(CC)nc1C(N)=O | -8.79 | -
CC(Nc1ccn(CC(F)(F)F)n1)C(=O)N1CCCC1 (centres unmarked) | 1.317 | -3.277
O=S(=O)(CCNc1ccccn1)NCC1CCC1 | 72 | 62.91
CN(C)Cc1nnc(-c2ccccc2)o1 | 42.9 | -
c1ccc2oc(CN3CCNCC3)cc2c1 | - | 25.44
Cc1ccc2[nH]c(CN)nc2c1C | 65.31 | 46.86
CN(CCc1ccccn1)CCN1CCCC1=O | - | 12.66
O=C(Cn1cnnn1)NCC1(c2ccccc2)CCC1 | 50.13 | -
COc1ccc(S(=O)(=O)N2CCCCC2)cc1OC | 33.39 | -
N#CCCn1ccc(=O)[nH]c1=O | 6.092 | -
COC[C@@H](O)CNC1CCOc2c(Br)cccc21 (some centres unmarked) | - | 40.06
CN(C)CCC(=O)c1ccc(F)cc1 | 107.7 | 116.1
NC(=O)N1CCCC(C(=O)Nc2cc(Br)ccc2F)C1 (centres unmarked) | - | 31.38
CN(C)S(=O)(=O)c1cccc2nsnc12 | 3.747 | -
CCN(Cc1ccc(OC)nc1)[C@H]1COC[C@@H]1O | -15.51 | -
OCCN1CCN(CCc2ccccc2)CC1 | - | 13.07
CC1CNCCN1c1nc2ccccc2o1 (centres unmarked) | 47.34 | -
c1ccc(OCCCNCc2ccco2)nc1 | 10.14 | 20.11
CC(CO)OCCc1ccccc1 (centres unmarked) | - | 11.4
O=C(CCn1ccnc1)N1CCCCC1CO (centres unmarked) | -8.699 | -
Cc1cc(C2CCC2)nc(N2CCNC(=O)C2)n1 | 64.52 | 47.9
CN1CCCC(CN2CCN(c3nc[nH]n3)CC2)C1 (centres unmarked) | - | -20.78
O=C(CNC(=O)c1cccnc1O)NC1CC1 | 27.46 | -
CN(C)c1ncc(CN(CCO)Cc2nccs2)cn1 | 43.52 | -
Cc1nnc(CCNC(=O)[C@@H](N)C(C)(C)C)s1 | -7.612 | -
CNS(=O)(=O)c1cc(C(=O)Nc2cc(C)ns2)c(C)o1 | - | 24.74
CN(CCC1CCCN1C)CC(=O)N(C)C (centres unmarked) | -0.9604 | -
NCC(O)c1ccc(Cl)cc1Cl (centres unmarked) | 59.77 | 39.93
O=C(CC1COc2ccccc2O1)N1CCOCC1 (centres unmarked) | 55.46 | -1.615
NCCCC1(O)CCC1 | 4.486 | -
CC(C)(C)N(CCS(C)(=O)=O)C(=O)c1ccncc1F | -3.02 | -
NCc1nc(C(F)F)no1 | 53.16 | -
Cc1nc(CNC(=O)c2cc(C3CC3)[nH]n2)cs1 | 53.41 | -
CC(C)C(C(=O)Nc1ccc(CCO)cc1)N(C)C (centres unmarked) | - | 15.47
CC(C)(NC(=O)c1cc2ccc(Br)cc2[nH]1)C(N)=O | 41.43 | -
NCC(N)c1ccc2ncccc2c1 (centres unmarked) | - | 11.67
CN(CC1(O)CCCC1)c1ncccn1 | - | -2.927
CC(C)c1cc(C(=O)NC(C#N)C2CC2)n(C)n1 (centres unmarked) | 33.96 | -
N#Cc1cc(C#N)c(SCCN2CCCCC2)nc1N | 2.575 | -
CN(C(=O)Cn1ccccc1=O)C1CCS(=O)(=O)C1 (centres unmarked) | - | -17.79
COc1ccc(Br)cc1CNCC1CCS(=O)(=O)C1 (centres unmarked) | - | 2.366
c1nc(C2CNCCO2)no1 (centres unmarked) | -6.725 | -
CCOC(=O)C(C)(N)C(C)C (centres unmarked) | -10.22 | -
CCc1cccc(NC(=O)C2(N)CC2)c1 | - | 0.2123
COC(=O)C(C)N(Cc1ccccn1)C1CC1 (centres unmarked) | - | 25.58
CCS(=O)(=O)N(C)CC(=O)Nc1cc(C)on1 | 11.96 | 0.695
Cc1ccc(CN)cc1S(C)(=O)=O | - | -13.4
CCC[C@H](N)C(=O)NCCc1nc(COC)no1 | - | -7.388
NCc1ccc(NC(=O)CCN2CCCC2)cc1 | 0.4663 | -
CCCC(NC(=O)c1cnc(O)cn1)c1nccn1C (centres unmarked) | - | -20.6
NCCNC(=O)c1ccc(C(F)(F)F)cc1 | 37.98 | -
CCCC1=NNC(=O)C1 | 14.42 | -
Cc1cc(CS(=O)(=O)C(C)C(=O)NC2CC2)on1 (centres unmarked) | - | -23.74
Cc1cc(C(=O)Nc2ccc3c(c2)CC(=O)N3)c(C)o1 | 14.07 | -

The last 6 entries again:

structure,Mtb glucose medium,Mtb cholesterol medium
NCc1ccc(NC(=O)CCN2CCCC2)cc1,0.4663,-
CCCC(NC(=O)c1cnc(O)cn1)c1nccn1C (centres unmarked),-,-20.6
NCCNC(=O)c1ccc(C(F)(F)F)cc1,37.98,-
CCCC1=NNC(=O)C1,14.42,-
Cc1cc(CS(=O)(=O)C(C)C(=O)NC2CC2)on1 (centres unmarked),-,-23.74
Cc1cc(C(=O)Nc2ccc3c(c2)CC(=O)N3)c(C)o1,14.07,-